# According to PMC11109247 (Nature Communications, 2024):
# B1: 1E5 (chimeric macaque-human IgG1 antibody) (antibody, V domains shown)
# VH: QVQLQESGPGVVKPSETLSLTCAVSGGSISDTYRWSWIRQPPGKGLEWIGYIYGSATSTYYNPSLSSRVTISKDMSKNQFSLNLNSVTAADTAVYYCARDYQYYYSGSYPTPHNWFDVWGPGVLVTVSS
# VL: DIQMTQSPSSLSASVGDRVTITCRASQGIIDYLSWYQQKPGKAPKLLISTASNLESGVPSRFSGSGSGTEFTLTISSLQPEDFATYSCLQGYTTPYTFGQGTKVEIK
# Target: full-length NiVBD G displayed on the surface of 293T cells (Nipah virus, Bangladesh (GenBank …, UniProt Q4VCP5, strain))
# Assay: cell-based or functional assay
binder,measurement,value
B1,"Live virus neutralization IC50 (plaque reduction), NiVBD",0.03 µg/mL
